For at least one entry, the source does not settle the construct or the ends of the probe. For part of these data: At least one verdict rests on a figure or table, not on a statement of the authors. For part of these data: Tags and fusion partners may be left off the protein sequences shown.
Tests used:
MutY DNA glycosylase = assay: EMSA; details: 5 mM Mg2+; EMSA: 50 mM MOPS pH 7.5, 1 mM EDTA, 1 mM DTT, 5 mM MgCl2, 5% glycerol, 200 ng protein in 10 ul, 20 min room temperature; 6% PAGE; recombinant …; protein details: His; label: 5' 32P
[1] = target: T1, PilQ complex (native secretin) (Neisseria meningitidis M1080) (UniProt Q9JVW4); assay: EMSA; details: 5 mM Mg2+; EMSA: 50 mM MOPS pH 7.5, 1 mM EDTA, 1 mM DTT, 5 mM MgCl2, 5% glycerol, 200 ng protein in 10 ul, 20 min room temperature; 6% PAGE; native protein; label: 5' 32P; single-stranded DNA
T1 sequence (looked up, limits assumed): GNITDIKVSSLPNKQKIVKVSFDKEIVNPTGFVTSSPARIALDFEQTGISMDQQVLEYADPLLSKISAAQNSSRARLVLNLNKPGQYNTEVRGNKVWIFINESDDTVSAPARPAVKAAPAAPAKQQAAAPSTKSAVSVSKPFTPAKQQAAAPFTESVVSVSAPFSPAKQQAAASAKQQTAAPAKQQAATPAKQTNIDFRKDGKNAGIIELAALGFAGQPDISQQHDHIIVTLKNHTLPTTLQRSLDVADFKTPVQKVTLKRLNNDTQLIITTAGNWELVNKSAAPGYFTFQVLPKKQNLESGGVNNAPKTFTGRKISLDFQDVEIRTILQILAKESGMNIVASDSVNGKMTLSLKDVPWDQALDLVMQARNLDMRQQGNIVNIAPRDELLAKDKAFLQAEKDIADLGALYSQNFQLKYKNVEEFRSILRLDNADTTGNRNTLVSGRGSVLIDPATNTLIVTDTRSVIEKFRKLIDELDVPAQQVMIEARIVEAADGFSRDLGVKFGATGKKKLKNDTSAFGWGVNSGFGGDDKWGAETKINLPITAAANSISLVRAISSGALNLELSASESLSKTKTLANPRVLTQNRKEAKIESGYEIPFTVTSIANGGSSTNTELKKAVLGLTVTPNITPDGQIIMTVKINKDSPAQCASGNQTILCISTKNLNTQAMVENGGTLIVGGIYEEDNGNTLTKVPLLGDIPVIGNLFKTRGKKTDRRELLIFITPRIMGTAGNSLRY

[2] = target: T1, PilQ complex (native secretin) (Neisseria meningitidis M1080); assay: electron microscopy (nanogold); details: native protein, label: 5' biotin, streptavidin-5 nm gold

Sequence | binding result (MutY DNA glycosylase) | also measured
CAACAACAACAACAGCCGTCTGAACCAAATTCAGACGGCAACAACAACAACA (double strand) [T1+T2 hybrid] | binds | –
CAACAACAACAACAGGCCTGTCATCCAAAATGACAGGCCAACAACAACAACA (double strand) [T3+T4 hybrid] | binds | –
CCGCCGCCTGCCGTCTGAAAGATATTCAGACGGCATCGGC (double strand) [T7+T8 hybrid] | binds | –
CCGCCGCCTGCCGTCTGAAAGATATTCAGACGGCATCGGC [T7] | – | binding result [1]: binds
GCCGTCTGAA (double strand) [DUS 10-mer duplex] | – | binding result [2]: binds
GCCGTCTGAA [DUS 10-mer, single-stranded] | – | binding result ([2]; single-stranded DNA): binds
